Anti-infective test results gathered from many reports (values: NIAID ChemDB through PubChem).

Common to all: whole-cell or culture tests; organism: HIV-1; read by: p24 / ELISA; read-out: EC50

a–b is a range or a potency band.

CC(=O)OCC1=C[C@H]2[C@@H]3C(C)(C)[C@]3(OC(C)=O)[C@H](OC(=O)/C=C/c3ccc4c(c3)OCO4)[C@@H](C)[C@]2(O)[C@@H]2C=C(C)C(=O)[C@@]2(O)C1 ; strain or isolate: IIIB ; cells: C8166 ; value: 0.2101 µM
Cc1cc(C)cc(Cc2c(I)c(=O)[nH]c(=O)n2COCc2ccccc2)c1 ; strain or isolate: SF33 ; cells: MT-4 ; value: 0.004 µM
CCC1=C(C(=O)OCC2CCCCC2)[C@H](c2ccc(OC(=O)[C@H](C)[NH3+])cc2)NC(=O)N1 ; cells: CEM ; value: ≤1 µM
C/C=C/C(=O)OCC1=C[C@H]2[C@@H]3C(C)(C)[C@]3(OC(=O)/C=C/C)[C@H](O)[C@@H](C)[C@]2(O)[C@@H]2C=C(C)C(=O)[C@@]2(O)C1 ; strain or isolate: IIIB ; cells: C8166 ; value: 64.79 µM
CCC1=C(C(=O)OCC2CCCCC2)C(c2ccc(C(=O)O)cc2)NC(=O)N1 ; cells: CEM ; value: >5 µM
CCCC(=O)OCC1=C[C@H]2[C@@H]3C(C)(C)[C@]3(OC(=O)CCC)[C@H](OC(=O)/C=C/c3ccccc3)[C@@H](C)[C@]2(O)[C@@H]2C=C(C)C(=O)[C@@]2(O)C1 ; strain or isolate: IIIB ; cells: C8166 ; value: 0.055 µM
C=C(C)[C@@H]1CC[C@]2(NC[C@H]([C@@H](C)O)N3CCS(=O)(=O)CC3)CC[C@]3(C)[C@H](CC[C@@H]4[C@@]5(C)CC[C@H](OC(=O)[C@H]6C[C@@H](C(=O)O)C6(C)C)C(C)(C)[C@@H]5CC[C@]43C)[C@@H]12 ; strain or isolate: 92HT599 ; cells: MT-2 ; value: <0.01 µM
CCCCCCCCCCC(=O)O[C@@H]1[C@@H](C)[C@@]2(O)[C@@H](C=C(CO)C[C@]3(O)C(=O)C(C)=C[C@@H]23)[C@@H]2C(C)(C)[C@]12OC(=O)CCCCCCCCCC ; strain or isolate: IIIB ; cells: C8166 ; value: 16.51 µM
CCC1=C(C(=O)OCC2CCCCC2)[C@H](c2cccc(OC(=O)OC(C)(C)C)c2)NC(=O)N1 ; cells: CEM ; value: ≤1 µM
CC(C)C1=C2[C@H]3CC[C@@H]4[C@@]5(C)CC[C@H](OC(=O)[C@H]6C[C@@H](C(=O)O)C6(C)C)C(C)(C)[C@@H]5CC[C@@]4(C)[C@]3(C)CC[C@@]2(CC(=O)NCCN2CCS(=O)(=O)CC2)CC1=O ; strain or isolate: 92HT599 ; cells: MT-2 ; value: <1 µM
C[C@@H](O)[C@@H](CN[C@]12CC[C@@H](C3(C)CC3)[C@@H]1[C@H]1CC[C@@H]3[C@@]4(C)CC[C@H](OC(=O)[C@H]5C[C@@H](C(=O)O)C5(C)C)C(C)(C)[C@@H]4CC[C@@]3(C)[C@]1(C)CC2)N1CCS(=O)(=O)CC1 ; strain or isolate: NL4-3 ; cells: MT-4 ; changes: V7A ; value: <0.05 µM
CCC1=C(C(=O)OCC2CCCCC2)C(c2cccc([NH3+])c2)NC(=O)N1 ; cells: CEM ; value: ≤1 µM
CCCCCCCCC(=O)O[C@@]12[C@H](OC(=O)/C=C/c3ccc(F)cc3)[C@@H](C)[C@@]3(O)[C@@H](C=C(CO)C[C@]4(O)C(=O)C(C)=C[C@@H]34)[C@@H]1C2(C)C ; strain or isolate: IIIB ; cells: C8166 ; value: 0.0029 µM
CCC1=C(Cc2ccccc2)C(c2cccc(OC)c2)NC(=O)N1 ; cells: CEM ; value: >5 µM
COCCOCC(=O)O[C@H](C)[C@@H](CN[C@]12CC[C@@H](C3(C)CC3)[C@@H]1[C@H]1CC[C@@H]3[C@@]4(C)CC[C@H](OC(=O)[C@H]5C[C@@H](C(=O)O)C5(C)C)C(C)(C)[C@@H]4CC[C@@]3(C)[C@]1(C)CC2)N1CCS(=O)(=O)CC1 ; strain or isolate: NL4-3 ; cells: MT-4 ; value: <0.01 µM
CC(C)C1=C2[C@H]3CC[C@@H]4[C@@]5(C)CC[C@H](OC(=O)[C@H]6C[C@@H](C(=O)O)C6(C)C)C(C)(C)[C@@H]5CC[C@@]4(C)[C@]3(C)CC[C@@]2(CC(=O)NCC(CCCCN)NC(=O)c2ccc(Cl)cc2)CC1=O ; strain or isolate: 92HT599 ; cells: MT-2 ; value: <1 µM
CCC1=C(C(=O)OCC2CCCCC2)C(c2ccc(OC(O)[C@H](C)NC(=O)OC(C)(C)C)c(Cl)c2)NC(=O)N1 ; cells: CEM ; value: ≤1 µM
CC(C)C1=C2[C@H]3CC[C@@H]4[C@@]5(C)CC[C@H](OC(=O)[C@H]6C[C@@H](C(=O)O)C6(C)C)C(C)(C)[C@@H]5CC[C@@]4(C)[C@]3(C)CC[C@@]2(CC(=O)NCc2ccc(N3CCOCC3)cc2)CC1=O ; strain or isolate: 92HT599 ; cells: MT-2 ; value: <1 µM
CCC1=C(c2nc(C3CCCCC3)cs2)C(c2ccc3ccccc3c2Br)NC(=O)N1 ; cells: CEM ; value: 1–5 µM
CCCCCCCCC(=O)O[C@@]12[C@H](OC(=O)/C=C/c3ccc4c(c3)OCO4)[C@@H](C)[C@@]3(O)[C@@H](C=C(CO)C[C@]4(O)C(=O)C(C)=C[C@@H]34)[C@@H]1C2(C)C ; strain or isolate: IIIB ; cells: C8166 ; value: 0.0048 µM
CC(C)C1=C2[C@H]3CC[C@@H]4[C@@]5(C)CC[C@H](OC(=O)[C@H]6C[C@@H](C(=O)O)C6(C)C)C(C)(C)[C@@H]5CC[C@@]4(C)[C@]3(C)CC[C@@]2([C@@H](O)CNCc2cccnc2)CC1=O ; strain or isolate: 92HT599 ; cells: MT-2 ; value: <1 µM
CCC1=C(CO)C(c2cccc(OC)c2)NC(=O)N1 ; cells: CEM ; value: >5 µM
CCCCCCCCCCCCCCCCCCCC(=O)O[C@@H]1[C@@H](C)[C@@]2(O)[C@@H](C=C(COC(C)=O)C[C@]3(O)C(=O)C(C)=C[C@@H]23)[C@@H]2C(C)(C)[C@]12O ; strain or isolate: IIIB ; cells: C8166 ; value: >200 µM
CCC1=C(C(=O)OCC2CCCCC2)C(c2cccc(C(=O)OC)c2)NC(=O)N1 ; cells: CEM ; value: ≤1 µM
Cc1nc2ccc(CNC[C@H](O)[C@@]34CC[C@]5(C)[C@H](CC[C@@H]6[C@@]7(C)CC[C@H](OC(=O)[C@H]8C[C@@H](C(=O)O)C8(C)C)C(C)(C)[C@@H]7CC[C@]65C)C3=C(C(C)C)C(=O)C4)cc2[nH]1 ; strain or isolate: 92HT599 ; cells: MT-2 ; value: <1 µM
CC(C)OC(=O)OCOP(=O)(CO[C@H](C)Cn1cnc2c(N)ncnc21)OCOC(=O)OC(C)C ; cells: C8166 ; value: 0.01861 µM
CC(C)C1=C2[C@H]3CC[C@@H]4[C@@]5(C)CC[C@H](OC(=O)[C@H]6C[C@@H](C(=O)O)C6(C)C)C(C)(C)[C@@H]5CC[C@@]4(C)[C@]3(C)CC[C@@]2(CC(=O)NC[C@@H]2CCCCN2)CC1=O ; strain or isolate: 92HT599 ; cells: MT-2 ; value: <1 µM
C=C(C)[C@@H]1CC[C@]2(NC[C@H]([C@@H](C)O)N3CCS(=O)(=O)CC3)CC[C@]3(C)[C@H](CC[C@@H]4[C@@]5(C)CC[C@H](OC(=O)C6CC(C(=O)O)C6(C)C)C(C)(C)[C@@H]5CC[C@]43C)[C@@H]12 ; strain or isolate: NL4-3 ; cells: MT-4 ; changes: V7A ; value: <0.05 µM
CCCCCCCCCCCCCCCCCCCC(=O)O[C@@H]1[C@@H](C)[C@@]2(O)[C@@H](C=C(CO)C[C@]3(O)C(=O)C(C)=C[C@@H]23)[C@@H]2C(C)(C)[C@]12O ; strain or isolate: IIIB ; cells: C8166 ; value: 40 µM
CC(C)C1=C2[C@H]3CC[C@@H]4[C@@]5(C)CC[C@H](OC(=O)[C@H]6C[C@@H](C(=O)O)C6(C)C)C(C)(C)[C@@H]5CC[C@@]4(C)[C@]3(C)CC[C@@]2([C@@H](O)CNCc2ccccc2)CC1=O ; strain or isolate: 92HT599 ; cells: MT-2 ; value: <1 µM
C[C@H](F)[C@@H](CN[C@]12CC[C@@H](C3(C)CC3)[C@@H]1[C@H]1CC[C@@H]3[C@@]4(C)CC[C@H](OC(=O)[C@H]5C[C@@H](C(=O)O)C5(C)C)C(C)(C)[C@@H]4CC[C@@]3(C)[C@]1(C)CC2)N1CCS(=O)(=O)CC1 ; strain or isolate: NL4-3 ; cells: MT-4 ; value: 0.01001–0.05 µM

The first 4 rows once more:

SMILES | strain or isolate | cells | changes | value
CC(=O)OCC1=C[C@H]2[C@@H]3C(C)(C)[C@]3(OC(C)=O)[C@H](OC(=O)/C=C/c3ccc4c(c3)OCO4)[C@@H](C)[C@]2(O)[C@@H]2C=C(C)C(=O)[C@@]2(O)C1 | IIIB | C8166 | - | 0.2101 µM
Cc1cc(C)cc(Cc2c(I)c(=O)[nH]c(=O)n2COCc2ccccc2)c1 | SF33 | MT-4 | - | 0.004 µM
CCC1=C(C(=O)OCC2CCCCC2)[C@H](c2ccc(OC(=O)[C@H](C)[NH3+])cc2)NC(=O)N1 | - | CEM | - | ≤1 µM
C/C=C/C(=O)OCC1=C[C@H]2[C@@H]3C(C)(C)[C@]3(OC(=O)/C=C/C)[C@H](O)[C@@H](C)[C@]2(O)[C@@H]2C=C(C)C(=O)[C@@]2(O)C1 | IIIB | C8166 | - | 64.79 µM

Blank or dashed fields: not listed here. ECn is the concentration giving n% inhibition of infection, replication or growth. Neighbouring rows are from separate reports.